Share of PSTVd stem 3 variants by leaf site

Source: Wu et al. 2024 (doi:10.1371/journal.ppat.1012142), supplementary data.

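A pool of all variants was put on leaves of three Nicotiana benthamiana plants. Samples came from the inoculated region at 5 days, the leaf margin at 10 and upper systemic leaves at 12.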

Region: stem 3 of PSTVd (intermediate strain), upper and lower strand joined, each 5' to 3', the first 8 letters being the upper strand. Wild type: GUGGUUCCGGAACCGC. Varied positions (N): GUGGUUCCGNANNCNN.

Values are reads per thousand in the sample; higher means more abundant, 0 means not found. Each site shows the three plants. "Pool" is the share in the plasmid pool used as inoculum, on the same scale. The inoculated region was read from the minus strand, the other sites from the plus strand. IR is the inoculated region, LM the leaf margin, Sys the systemic leaves. Sequences that differ at fixed positions probably stem from PCR or sequencing errors, and defective variants can be carried along by functional ones. Samples held 27,691 to 54,225 reads, so the smallest values rest on one or two reads. Wild type was 17.3 per thousand in the pool and the most common sequence in every sample (inoculated region 330, 345, 235; leaf margin 794, 766, 816; systemic leaves 830, 792, 869).

sequence | pool | IR | LM | Sys
GUGGUUCCGAACGCAC | 0.862 | 0.746 / 0.863 / 0.730 | 0 / 0.0636 / 0 | 0 / 0 / 0
GUGGUUCCGAACGCAG | 0.677 | 0.773 / 0.539 / 0.784 | 0 / 0 / 0.361 | 0 / 0 / 0
GUGGUUCCGAACGCAU | 0.616 | 0.773 / 0.755 / 0.919 | 0.0283 / 0 / 0 | 0 / 0 / 0
GUGGUUCCGAACGCCA | 0.708 | 0.400 / 0.518 / 0.351 | 0 / 0 / 0.0361 | 0 / 0 / 0
GUGGUUCCGAACGCCC | 0.785 | 0.213 / 0.345 / 0.162 | 0.0283 / 0 / 0.0361 | 0 / 0 / 0
GUGGUUCCGAACGCCG | 0.939 | 0.320 / 0.280 / 0.297 | 0 / 0 / 0.0361 | 0 / 0 / 0
GUGGUUCCGAACGCCU | 0.970 | 0.880 / 0.755 / 0.649 | 0.0283 / 0.986 / 0.253 | 0 / 0 / 0
GUGGUUCCGAACGCGA | 0.877 | 0.453 / 0.561 / 0.270 | 0.0283 / 0 / 0.0361 | 0 / 0 / 0
GUGGUUCCGAACGCGC | 1.74 | 0.480 / 0.345 / 0.405 | 0.0283 / 0.0318 / 0.0361 | 0.0186 / 0 / 0
GUGGUUCCGAACGCGG | 0.677 | 0.373 / 0.323 / 0.189 | 0 / 0 / 0.0361 | 0 / 0 / 0
GUGGUUCCGAACGCGU | 0.662 | 0.826 / 0.625 / 0.811 | 0 / 0 / 0.433 | 0 / 0 / 0
GUGGUUCCGAACGCUA | 0.862 | 0.373 / 0.453 / 0.378 | 0 / 0.0636 / 0.0722 | 0.130 / 0 / 0.0243
GUGGUUCCGAACGCUC | 0.908 | 0.347 / 0.431 / 0.243 | 0 / 0 / 0 | 0 / 0 / 0
GUGGUUCCGAACGCUG | 0.908 | 0.506 / 0.367 / 0.405 | 0 / 0 / 0.0722 | 0 / 0 / 0
GUGGUUCCGAACGCUU | 0.893 | 0.826 / 0.776 / 0.892 | 0 / 0 / 0 | 0 / 0 / 0
GUGGUUCCGAACUCAA | 0.862 | 0.800 / 0.604 / 0.784 | 0.0283 / 1.08 / 0.181 | 0 / 0 / 0
GUGGUUCCGAACUCAC | 0.893 | 0.666 / 0.927 / 0.946 | 0 / 0.859 / 0.361 | 0 / 0 / 0
GUGGUUCCGAACUCAG | 1.55 | 0.960 / 0.755 / 0.892 | 1.25 / 0.923 / 0.469 | 1.17 / 1.33 / 0.730
GUGGUUCCGAACUCAU | 0.769 | 0.720 / 0.755 / 1.00 | 1.59 / 1.15 / 0.506 | 1.04 / 1.44 / 0.754
GUGGUUCCGAACUCCA | 1.20 | 0.853 / 0.798 / 0.946 | 0 / 0 / 0.0722 | 0.0186 / 0 / 0
GUGGUUCCGAACUCCC | 0.816 | 0.880 / 0.690 / 0.892 | 0 / 0 / 0.433 | 0 / 0 / 0
GUGGUUCCGAACUCCG | 0.862 | 0.773 / 0.690 / 0.649 | 0 / 0 / 0.0361 | 0 / 0 / 0
GUGGUUCCGAACUCCU | 1.48 | 1.31 / 1.12 / 1.30 | 1.39 / 1.15 / 0.614 | 1.38 / 1.24 / 0.900
GUGGUUCCGAACUCGA | 0.954 | 0.933 / 0.755 / 1.03 | 0 / 0 / 0 | 0 / 0 / 0
GUGGUUCCGAACUCGC | 1.29 | 0.960 / 1.01 / 1.30 | 0 / 0 / 0.0361 | 0 / 0 / 0
GUGGUUCCGAACUCGG | 0.908 | 0.826 / 0.733 / 0.811 | 0 / 0 / 0 | 0 / 0 / 0
GUGGUUCCGAACUCGU | 0.877 | 0.933 / 0.733 / 0.594 | 0 / 1.05 / 0.506 | 0 / 0 / 0
GUGGUUCCGAACUCUA | 0.785 | 0.746 / 0.668 / 0.676 | 0 / 0.0318 / 0.722 | 0 / 0 / 0
GUGGUUCCGAACUCUC | 0.831 | 1.09 / 0.927 / 1.30 | 0 / 0.0318 / 0 | 0 / 0 / 0
GUGGUUCCGAACUCUG | 0.985 | 0.960 / 0.884 / 0.676 | 0 / 1.05 / 0.469 | 0 / 0 / 0
GUGGUUCCGAACUCUU | 0.970 | 0.746 / 0.604 / 0.649 | 0.0283 / 0 / 0.0361 | 1.23 / 1.53 / 0.754
GUGGUUCCGAAGACAA | 0.769 | 0.800 / 0.604 / 1.05 | 0 / 1.11 / 0.289 | 0 / 0 / 0
GUGGUUCCGAAGACAC | 0.816 | 1.04 / 0.776 / 0.919 | 0 / 0.0636 / 0 | 0 / 0 / 0
GUGGUUCCGAAGACAG | 1.06 | 1.41 / 0.927 / 1.51 | 3.09 / 1.43 / 0.578 | 2.22 / 2.62 / 1.73
GUGGUUCCGAAGACAU | 0.785 | 0.693 / 0.539 / 1.00 | 1.53 / 0.986 / 0.542 | 1.10 / 0.996 / 0.730
GUGGUUCCGAAGACCA | 1.02 | 0.880 / 0.668 / 0.757 | 0.0283 / 0.923 / 0.253 | 0 / 0 / 0
GUGGUUCCGAAGACCC | 0.769 | 1.01 / 0.733 / 0.811 | 0 / 0 / 0.686 | 0 / 0 / 0
GUGGUUCCGAAGACCG | 1.00 | 0.773 / 0.690 / 0.730 | 0 / 0.763 / 0.469 | 0 / 0 / 0
GUGGUUCCGAAGACCU | 0.754 | 0.720 / 0.647 / 0.865 | 0 / 0.986 / 0.469 | 0 / 0 / 0
GUGGUUCCGAAGACGA | 0.908 | 0.640 / 0.819 / 1.05 | 0.0283 / 0.0318 / 0 | 0 / 0 / 0
GUGGUUCCGAAGACGC | 0.893 | 0.586 / 0.819 / 0.730 | 0 / 0.0318 / 0.0361 | 0 / 0 / 0

5 of these entries, quoted again:

sequence,pool,IR,LM,Sys
GUGGUUCCGAACUCUU,0.970,0.746 / 0.604 / 0.649,0.0283 / 0 / 0.0361,1.23 / 1.53 / 0.754
GUGGUUCCGAACGCAG,0.677,0.773 / 0.539 / 0.784,0 / 0 / 0.361,0 / 0 / 0
GUGGUUCCGAACUCCC,0.816,0.880 / 0.690 / 0.892,0 / 0 / 0.433,0 / 0 / 0
GUGGUUCCGAACUCUG,0.985,0.960 / 0.884 / 0.676,0 / 1.05 / 0.469,0 / 0 / 0
GUGGUUCCGAACGCUC,0.908,0.347 / 0.431 / 0.243,0 / 0 / 0,0 / 0 / 0